Measured values from several laboratories, pooled; numbers as filed in NIAID ChemDB.

All rows: cytotoxicity tests; endpoint: CC50

Conditions beyond the fields shown may differ between rows.

O=C(O)c1cc2oc3ccccc3c2cc1O ; cell line: HELA-H1 ; result: 150 µM
CN1CCc2cc3c(cc2[C@@H]1[C@@H]1OC(=O)c2c1ccc1c2OCO1)OCO3 ; cell line: KB cells ; result: >20 µg/mL
Cc1cccc2c1OP(=O)(OC[C@H]1O[C@@H](n3cc(/C=C/Br)c(=O)[nH]c3=O)C[C@@H]1OC(=O)[C@@H](N)C(C)C)OC2 ; cell line: HELF ; result: 70.4 µg/mL
OC[C@H]1N[C@H](CO)[C@@H](O)[C@@H]1O ; cell line: Karpas 45 cells ; result: >320 µg/mL
CN(C(=O)Oc1ccc(Cl)cc1C(=O)Nc1ccc(Cl)cc1)c1ccccc1 ; cell line: HepG2 cell ; method: MTT ; result: 289 µM
CCCCCC(=O)OC1(C)c2ccccc2-c2c1c(-n1ccnc1)nc1ccc(Br)cc21 ; cell line: U-937 ; method: MTT ; result: >10 µg/mL
Oc1ccc2oc3ccccc3c2c1 ; cell line: HELA-H1 ; result: 100 µM
O=c1[nH]c(=O)n([C@H]2C[C@H](O)[C@@H](COP3(=O)OCc4ccccc4O3)O2)cc1/C=C/Br ; cell line: HELF ; result: 59.4 µg/mL
Nc1cc(SCCOCP(=O)(O)O)nc(N)n1 ; cell line: HeLa S3 ; result: <10 µM
O=Nc1c(-c2c(O)[nH]c3ccccc23)[nH]c2ccccc12 ; cell line: U1 ; method: trypan blue ; result: >16 µM
CCOc1cc(OCC)nc(NC(=S)NC(=O)c2cccnc2Cl)n1 ; cell line: MDCK ; method: MTS ; result: >300 µM
O=c1[nH]c(=O)n([C@H]2C[C@H](O)[C@@H](CO)O2)cc1/C=C/Br ; cell line: CBMC ; method: MTT ; result: 196 µM
Cc1cc(=O)n(CCOCP(=O)(O)O)c(N)n1 ; cell line: L1210 ; result: <10 µM
NNC(=O)c1ccncc1 ; cell line: HepG2 cells ; method: MTT ; result: >250 µM
O=C(CO)CCC(=O)OCCc1ccc2c(c1)OCO2 ; cell line: HL-60 ; method: MTT ; result: 4.05 µM
Cc1cccc2c1OP(=O)(OC[C@H]1O[C@@H](n3cc(/C=C/Br)c(=O)[nH]c3=O)C[C@@H]1OC(=O)C(C)(C)C)OC2 ; cell line: HELF ; result: 62.9 µg/mL
Nc1nc(OCCOCP(=O)(O)O)cc(OCCOCP(=O)(O)O)n1 ; cell line: HeLa S3 ; result: <10 µM
Nc1nc(OCCOCP(=O)(O)O)cc(=O)[nH]1 ; cell line: HepAD38 ; result: >329 µM
CCOc1cc(OCC)nc(NC(=S)NC(=O)c2ccc(-c3ccc([N+](=O)[O-])cc3)o2)n1 ; cell line: MDCK ; method: MTS ; result: >300 µM
Nc1ncnc2c1ncn2C[C@@H](CO)OCP(=O)(O)O ; cell line: U373-MG ; result: 34 µg/mL
C[C@@H](N)C(=O)O[C@H]1C[C@H](n2cc(/C=C/Br)c(=O)[nH]c2=O)O[C@@H]1COP1(=O)OCc2ccccc2O1 ; cell line: HELF ; result: >128 µg/mL
Nc1ncnc2c1ncn2C[C@@H](CO)OCP(=O)(O)O ; cell line: CBMC ; method: MTT ; result: 23 µM
Cc1cc(OCCOCP(=O)(O)O)nc(N)n1 ; cell line: HepAD38 ; result: >380 µM
CCCCC(=O)OC1(C)c2ccccc2-c2c1c(-n1ccnc1)nc1ccc(Br)cc21 ; cell line: U-937 ; method: MTT ; result: >5 µg/mL
OC1c2ccccc2C=Cc2ccccc21 ; cell line: HELA-H1 ; result: 150 µM
CN1CCc2cc3c(cc2C(=O)Cc2ccc4c(c2C1)OCO4)OCO3 ; cell line: KB cells ; result: >3.5 µg/mL
COc1cc(Cl)nc2nc(=NC(=O)c3ccc(Cl)nc3)sn12 ; cell line: MDCK ; method: MTS ; result: >300 µM
Nc1ccn(C[C@@H](CO)OCP(=O)(O)O)c(=O)n1 ; cell line: U87MG ; result: 165 µg/mL
CC(C)(C)NC(=O)NC(=S)NC(=O)c1ccc(-c2ccc([N+](=O)[O-])cc2)o1 ; cell line: MDCK ; method: MTS ; result: >300 µM
O=C(CNC(=O)OCC1c2ccccc2-c2ccccc21)O/N=C1\c2ccccc2-c2c1c(N1CCN(c3ccccn3)CC1)nc1ccc(Br)cc21 ; cell line: U-937 ; method: MTT ; result: >10 µg/mL
CN(C)C(=S)Oc1ccc(Cl)cc1C(=O)Nc1ccc(Cl)cc1 ; cell line: HepG2 ; method: MTT ; result: 83.51 µM
COC(=O)N[C@H](C(=O)N1CCC[C@H]1c1nc2ccc(-c3csc4c(-c5ccc(-c6cnc([C@@H]7CCCN7C(=O)[C@H](NC(=O)OC)c7ccccc7)[nH]6)cc5)csc34)cc2[nH]1)C(C)C ; cell line: CAKI-1 ; method: ATP ; result: >50 µM
Nc1cc(SCCOCP(=O)(O)O)nc(N)n1 ; cell line: HEPAD79 ; result: >357 µM
Cc1cc(=O)[nH]c(NC(=S)NC(=O)c2ccc(Cl)nc2)n1 ; cell line: MDCK ; method: MTS ; result: >300 µM
CC(C)C(NC(=O)OCC1c2ccccc2-c2ccccc21)C(=O)O/N=C1\c2ccccc2-c2c1c(N1CCN(c3ccccn3)CC1)nc1ccc(Br)cc21 ; cell line: U-937 ; method: MTT ; result: >20 µg/mL
COC(=O)NC(=S)NC(=O)NC(C)(C)C ; cell line: MDCK ; method: MTS ; result: >300 µM
CN1C[C@@H](O)[C@@H](O)[C@H]1[C@@H](O)CO ; cell line: Karpas 45 cells ; result: >300 µg/mL
CC(C)OC(=O)[C@H](C)N[P@](=O)(OC[C@H]1O[C@@](C#N)(c2ccc3c(N)ncnn23)[C@](C)(O)[C@@H]1OC(=O)C(C)C)Oc1ccccc1 ; cell line: Lunet-CD81 ; method: ATP ; result: >50 µM
O[C@H]1[C@H](O)[C@@H](O)CN2CC[C@H](O)[C@H]12 ; cell line: Karpas 45 cells ; result: >400 µg/mL
O=C(O)P(=O)(O)O ; cell line: HSB-2 ; method: MTT ; result: 250 µM
C[C@H](Cn1cnc2c(N)ncnc21)OCP(=O)(O)O ; cell line: AD38 ; method: ATP ; result: >50 µM
COc1cc(CCOC(=O)CCC(=O)CO)cc(O)c1OC ; cell line: HL-60 ; method: MTT ; result: 3.1 µM
OC[C@@H](O)[C@H]1NC[C@H](O)[C@@H]1O ; cell line: Karpas 45 cells ; result: >160 µg/mL
Cc1cccc2c1OP(=O)(OC[C@H]1O[C@@H](n3cc(/C=C/Br)c(=O)[nH]c3=O)C[C@@H]1OC(=O)[C@@H](N)Cc1ccccc1)OC2 ; cell line: HELF ; result: 106 µg/mL
COC(=O)N[C@H](C(=O)N1CCC[C@H]1c1ncc(-c2ccc(-c3ccc(-c4cnc([C@@H]5CCCN5C(=O)[C@@H](NC(=O)OC)C(C)C)[nH]4)cc3)cc2)[nH]1)C(C)C ; cell line: COLO-205 ; method: ATP ; result: 17 µM
CCCCN1C[C@H](O)[C@@H](O)[C@H](O)[C@H]1CO ; cell line: Karpas 45 cells ; result: >500 µg/mL
CCCCCC(=O)O[C@H]1C[C@H](n2cc(/C=C/Br)c(=O)[nH]c2=O)O[C@@H]1COP1(=O)OCc2cccc(C)c2O1 ; cell line: HELF ; result: >128 µg/mL
C[C@@H](COc1cc(N)nc(N)n1)OCP(=O)(O)O ; cell line: L1210 ; result: <10 µM
OC[C@H](O)[C@@H]1[C@H](O)[C@@H](O)CN1Cc1ccccc1 ; cell line: Karpas 45 cells ; result: >100 µg/mL
CN(C)C(=S)Oc1ccc(Cl)cc1C(=O)Nc1ccc(Br)cc1 ; cell line: HepG2 cell ; method: MTT ; result: 85.64 µM
C[C@@H]1O[C@@H](O[C@@H]2[C@@H](O)[C@H](OCCc3ccc(O)c(O)c3)O[C@H](COC(=O)/C=C/c3ccc(O)c(O)c3)[C@H]2O)[C@H](O)[C@H](O)[C@H]1O ; cell line: MDA-MB-231 ; method: MTT ; result: 9.3 µM
C/C(=N\OCc1ccc(F)cc1)c1c(C)cc(=O)n(O)c1O ; cell line: HepG2 ; method: MTS ; conditions: 7 d ; result: 22 µM
OC[C@H](O)[C@H]1[C@H](O)[C@H](O)CN1Cc1ccccc1 ; cell line: Karpas 45 cells ; result: >100 µg/mL
C[C@H]1[C@@H](CCCOP(=O)(O)Oc2ccccc2)O[C@@H]2OC3(C)CC[C@H]4[C@H](C)CC[C@@H]1[C@@]24OO3 ; cell line: Human foreskin fibroblasts ; result: 55.04 µM
O=C(O)[C@H]1NC[C@@H](O)[C@@H](O)[C@@H]1O ; cell line: Karpas 45 cells ; result: >160 µg/mL
OCCc1ccc(O)c(O[C@@H]2O[C@H](CO)[C@@H](O)[C@H](O)[C@H]2O)c1 ; cell line: HL-60 ; method: MTT ; result: 5.59 µM
CC(C)(C)c1cccc2c1OP(=O)(OC[C@H]1O[C@@H](n3cc(/C=C/Br)c(=O)[nH]c3=O)C[C@@H]1O)OC2 ; cell line: HELF ; result: 63.3 µg/mL
Nc1ccn(C[C@@H](CO)OCP(=O)(O)O)c(=O)n1 ; cell line: CBMC ; method: MTT ; result: 181 µM
CC(=O)N[C@H]1CN[C@H](CO)[C@@H](O)[C@@H]1O ; cell line: Karpas 45 cells ; result: >190 µg/mL
CN1CCc2cc3c(cc2[C@H]1[C@H]1OC(=O)c2c1ccc1c2OCO1)OCO3 ; cell line: Vero cells ; result: >10 µg/mL
Cc1c(N)nc(N)nc1OCCOCP(=O)(O)O ; cell line: HepAD38 ; result: >360 µM
CC(C)(C)NC(=O)NC(=O)NC(=O)c1ccccc1 ; cell line: MDCK ; method: MTS ; result: >300 µM
Nc1cc(OCCOCP(=O)(O)O)nc(N)n1 ; cell line: HeLa S3 ; result: <10 µM
Nc1nc(N)c2ncn(CCOCP(=O)(O)O)c2n1 ; cell line: CBMC ; method: MTT ; result: 32 µM

Repeating the final 6 entries:

SMILES	cell line	method	conditions	result
CC(=O)N[C@H]1CN[C@H](CO)[C@@H](O)[C@@H]1O	Karpas 45 cells	-	-	>190 µg/mL
CN1CCc2cc3c(cc2[C@H]1[C@H]1OC(=O)c2c1ccc1c2OCO1)OCO3	Vero cells	-	-	>10 µg/mL
Cc1c(N)nc(N)nc1OCCOCP(=O)(O)O	HepAD38	-	-	>360 µM
CC(C)(C)NC(=O)NC(=O)NC(=O)c1ccccc1	MDCK	MTS	-	>300 µM
Nc1cc(OCCOCP(=O)(O)O)nc(N)n1	HeLa S3	-	-	<10 µM
Nc1nc(N)c2ncn(CCOCP(=O)(O)O)c2n1	CBMC	MTT	-	32 µM

CCn: concentration that lowers growth or viability of the cells by n%. An empty or dashed field is not shown.